Data reported in US20250268876A1, “TREATMENT OF HIDRADENITIS SUPPURATIVA WITH ORISMILAST” (UNION THERAPEUTICS A/S, priority 2021, published 2025).

Tested on: TNF-α secretion from human whole blood
Assay: Whole blood TNF-α secretion assay (LPS or SEB)
Assay type: cell-based
Conditions: 24 h, SEB 1 μg/mL, donor 1

CCOc1cc([C@@H](CS(C)(=O)=O)N2C(=O)c3cccc(NC(C)=O)c3C2=O)ccc1OC [Apremilast]
EC50: 139 nM
